{"source": "paper PMC10873877", "key": {"[1]": {"system": "His-Tal6b/AvrXa27A (Xanthomonas oryzae pv. oryzae LN18)", "experiment": "EMSA", "details": "pH and temperature not stated, recombinant protein, protein details: His (pET-30a), label: Cy5"}, "His-PthXo1": {"molecular_target": "His-PthXo1 (UniProt B2SU53)", "experiment": "EMSA", "details": "pH and temperature not stated, recombinant protein, protein details: His, label: Cy5"}}, "note": "For at least one entry, the source does not settle the construct or the ends of the probe.", "data": [{"sequence": "AGCTCCCCCTACTGTACAC (double strand) [Xa13p-11]", "values": [{"measurement": "binding result", "setting": "[1]", "value": "binds"}]}, {"sequence": "ATCTCCCCCTACTGTACAC (double strand) [Xa13p-10]", "values": [{"measurement": "binding result", "setting": "[1]", "value": "binds"}]}, {"sequence": "GCATCTCCCCCTACTGTACACC (double strand) [Xa13p-9]", "values": [{"measurement": "binding result", "setting": "[1]", "value": "binds"}]}, {"sequence": "GTGCTATAAATAGAAGAAGAGACCCATAGAGAGC (double strand) [Xa27p]", "values": [{"measurement": "binding result", "setting": "[1]; reduced by unlabeled Xa27p", "value": "binds"}]}, {"sequence": "GTTAGATATGCATCTCCCCCTACTGTACACCACCAAAAGT (double strand) [Xa13p]", "values": [{"measurement": "binding result", "setting": "His-PthXo1", "value": "binds"}, {"measurement": "binding result", "setting": "[1]", "value": "binds"}]}, {"sequence": "GTTAGATATGCATCTCCCCCTTAGGTACACCACCAAAAGT (double strand) [Xa13p-5]", "values": [{"measurement": "binding result", "setting": "[1]", "value": "binds"}]}]}
